A mixed list of measured activities; the numbers were collected in NIAID ChemDB.

All rows: enzyme or target tests; organism: HIV-1; protein: Reverse transcriptase; read-out: fold resistance

a–b is a range or a potency band. Fold resistance has wild type as its base. Neighbouring rows are from separate reports. An empty or dashed field is not shown.

structure	changes	read by	strain	result
CCN1c2ncc(CCOc3ccc(C(=O)O)c4ccccc34)cc2C(=O)N(C)c2ccc(F)nc21	RT-K103N Y181C	nucleotide incorporation / radiometric	-	1–10
Cc1cc(S(N)(=O)=O)ccc1NC(=O)CSc1nnc(C)n1-c1ccc(C)c2c1CCCC2	RT-Y181C	nucleotide incorporation / radiometric	-	>2
Cc1cc(C2CC2)c2ccccc2c1-n1c(Br)nnc1SCC(=O)Nc1ccc(C(=O)O)cc1Cl	RT-Y188L	nucleotide incorporation / radiometric	-	>2
CCN1c2ncc(CCOc3ccc(C(=O)Nc4ccc(C(=O)O)cn4)cc3C)cc2C(=O)N(C)c2cccnc21	RT-K103N Y181C	nucleotide incorporation / radiometric	IIIB	1
Cc1cc(S(N)(=O)=O)ccc1NC(=O)CSc1nnc(Br)n1-c1ccc(C)c2c1CCCC2	RT-Y188L	nucleotide incorporation / radiometric	-	>1
Cc1cc(S(N)(=O)=O)ccc1NC(=O)COc1ccccc1C(=O)c1cc(Cl)cc(C#N)c1	RT-K103N	fluorescence	NNRTI-resistant	1.4
CCN1c2ncc(CCOc3ccc(C(=O)O)c4c3CCN(S(=O)(=O)N(C)C)C4)cc2C(=O)N(C)c2cccnc21	RT-Y188L	nucleotide incorporation / radiometric	-	1–10
CCc1ccc(-n2c(SCC(=O)Nc3ccc(C(=O)O)cc3C)nnc2C(F)F)c2ccccc12	RT-Y181C	nucleotide incorporation / radiometric	-	>2
CCN1c2ncc(CCOc3ccc(-c4ccc(F)c(C(=O)O)c4)cc3)cc2C(=O)N(C)c2cccnc21	RT-K103N Y181C	nucleotide incorporation / radiometric	IIIB	>2
CC(C)=CCN1Cc2cc(Cl)cc3[nH]c(=O)n(c23)C[C@@H]1C	RT-L100I	RT activity	-	155
O=P(O)(O)OP(=O)(O)O	RT-Q151E	nucleotide incorporation / radiometric	-	3.5
CCc1cc(C2CC2)ccc1-n1c(Br)nnc1SCC(=O)Nc1ccc(C(=O)O)cc1Cl	RT-Y181C	nucleotide incorporation / radiometric	-	>1
Cc1cc(S(N)(=O)=O)ccc1NC(=O)CSc1nnc(Br)n1-c1ccc(F)c2ccccc12	RT-Y181C	nucleotide incorporation / radiometric	-	>2
Cc1c(Cc2ccccc2)nc(SCCCCO)[nH]c1=O	RT-V179D	-	-	1.64
CCN1c2ncc(CCOc3ccc(N(CC(=O)O)C(C)=O)cc3C)cc2C(=O)N(C)c2cccnc21	RT-K103N Y181C	nucleotide incorporation / radiometric	IIIB	>2
C=CCO/N=C/c1cc(NC(=S)c2ccoc2C)ccc1Cl	RT-V106A	nucleotide incorporation / radiometric	-	3.33
NS(=O)(=O)c1ccc(NC(=O)CSc2nnc(Br)n2-c2ccc(F)c3ccccc23)c(Cl)c1	RT-Y188L	nucleotide incorporation / radiometric	-	>2
O=c1cc(Cc2ccccc2)nc(SCCCCO)[nH]1	RT-Y181I	-	-	5.16
CC[C@H](C)[C@H](NC(=O)c1ccc(NC(=O)CSc2nnc(Br)n2-c2ccc(C3CC3)c3ccccc23)c(Cl)c1)C(=O)O	RT-Y181C	nucleotide incorporation / radiometric	-	>1
Cc1occc1C(=S)Nc1ccc(Cl)c(C(=O)OCC2CC2)c1	RT-K103N	nucleotide incorporation / radiometric	-	>8.33
Cc1cc(C)cc(S(=O)(=O)c2c(C(=O)NC(C)C(N)=O)[nH]c3ccc(Cl)cc23)c1	RT-K103N	nucleotide incorporation / radiometric	-	166.6
CCCc1cc(=O)oc2c3c(c4c(c12)OC(C)(C)C=C4)O[C@H](C)C[C@@H]3O	RT-Y181C	nucleotide incorporation / radiometric	-	0.2
CCN1c2ncc(CCOc3ccc(C(C)C(=O)O)c4ccccc34)cc2C(=O)N(C)c2cccnc21	RT-K103N Y181C	nucleotide incorporation / radiometric	-	1–10
COC(=O)[C@@H](NC(=O)c1ccc(NC(=O)CSc2nnc(Br)n2-c2ccc(C3CC3)c3ccccc23)c(Cl)c1)C(C)C	RT-Y188L	nucleotide incorporation / radiometric	-	>1
O=C1Nc2ccc(Cl)cc2C(C#CC2CCCCC2)(C(F)(F)F)O1	RT-K103N Y181C	nucleotide incorporation	A17	2.53
Cc1ccc(-n2c(SCC(=O)Nc3ccc(S(=O)(=O)NC(C)C(=O)O)cc3Cl)nnc2C(F)F)c2c1CCCC2	RT-Y181C	nucleotide incorporation / radiometric	-	>2
CCn1c2cc(=NN=[N-])ccc-2[n+](C)c(=O)c2cccnc21	RT-Y188L	nucleotide incorporation	-	87.1
CCc1ccc(-n2c(Br)nnc2SCC(=O)Nc2ccc(C(=O)N[C@H](C(=O)OC)C(C)C)cc2Cl)c2ccccc12	RT-Y188L	nucleotide incorporation / radiometric	-	<1
CC(C)=CCOc1cc(NC(=S)c2ccsc2C)ccc1Cl	RT-K103N	-	-	50
CCN1c2ncc(CCOc3ccc(C(=O)N=c4ccn(O)cc4)cc3C)cc2C(=O)N(C)c2cccnc21	RT-K103N Y181C	nucleotide incorporation / radiometric	IIIB	1
Cc1cc(S(N)(=O)=O)ccc1NC(=O)C(C)Sc1nnc(Br)n1-c1c(C)ccc2ccccc12	RT-Y188L	nucleotide incorporation / radiometric	-	>2
CCc1cc(CCc2nc3ccccc3o2)c(=O)[nH]c1C	RT-Y181F	nucleotide incorporation	-	0.6
Cc1cc(C)cc(S(=O)(=O)c2c(C(=O)NCCO)[nH]c3ccc(Cl)cc23)c1	RT-V179D	nucleotide incorporation / radiometric	-	>8000
CCN1c2ncc(CCOc3cccc4c3ccc[n+]4[O-])cc2C(=O)Nc2c(C)cc(Cl)nc21	RT-Y188L	nucleotide incorporation / radiometric	-	562.5
Cc1cc(C)cc(S(=O)(=O)c2c(C(N)=O)[nH]c3ccc(Cl)cc23)c1	RT-Y181I	nucleotide incorporation / radiometric	-	46.6
CCc1ccc(-n2c(Br)nnc2SCC(=O)Nc2ccc(C(=O)NCC(C)O)cc2Cl)c2ccccc12	RT-Y188L	nucleotide incorporation / radiometric	-	>1
CCOCn1c(Sc2ccccc2)c(CC)c(=O)[nH]c1=O	RT-Y181C	nucleotide incorporation	-	14
O=C(CSc1nnc(Br)n1-c1ccc(C2CC2)cc1C(F)(F)F)Nc1ccc(C(=O)O)cc1Cl	RT-Y181C	nucleotide incorporation / radiometric	-	>1
CC(C)=CCOc1cc(NC(=S)c2ccoc2C)ccc1Cl	RT-Y188L	-	-	>31.25
O=C(CSc1nnc(Br)n1-c1ccc(C2CC2)c2ccccc12)Nc1ccc(C(=O)O)cc1Cl	RT-Y188L	nucleotide incorporation / radiometric	-	>2
CCN1c2ncc(CCOc3ccc(-c4ncc[nH]4)cc3C)cc2C(=O)N(C)c2cccnc21	RT-K103N Y181C	nucleotide incorporation / radiometric	IIIB	1
NS(=O)(=O)c1ccc(NC(=O)CSc2nnc(C(F)F)n2-c2ccc3c4c(cccc24)CC3)c(Cl)c1	RT-Y188L	nucleotide incorporation / radiometric	-	>2
CC1=C(C(=O)Nc2ccc(Cl)c(C(=O)OC(C)C)c2)SCCO1	RT-E138K	nucleotide incorporation	-	20
CCc1ccc(-n2c(C)nnc2SCC(=O)Nc2ccc(S(N)(=O)=O)cc2C)c2ccccc12	RT-Y181C	nucleotide incorporation / radiometric	-	>2
CC(C)[C@H](NC(=O)c1ccc(NC(=O)CSc2nnc(Br)n2-c2ccc(C3CC3)c3ccccc23)c(Cl)c1)C(=O)O	RT-Y181C	nucleotide incorporation / radiometric	-	<1
CCOC(=O)CN(C)C(=O)c1ccc(NC(=O)CSc2nnc(Br)n2-c2ccc(C3CC3)c3ccccc23)c(Cl)c1	RT-Y181C	nucleotide incorporation / radiometric	-	<1
CCOC(=O)c1c(C(C)C)c(C#N)c(=N)n2ccccc12	RT-Y181I	-	-	1.62
CCN1c2ncc(CCOc3ccc(C(=O)O)c4c3CCN(C(C)=O)C4)cc2C(=O)N(C)c2cccnc21	RT-Y188L	nucleotide incorporation / radiometric	-	>10
Cc1cc(S(N)(=O)=O)ccc1NC(=O)CSc1nnc(CF)n1-c1ccc(C)c2c1CCCC2	RT-Y181C	nucleotide incorporation / radiometric	-	>2

3 of the rows above, restated:

structure,changes,read by,strain,result
Cc1ccc(-n2c(SCC(=O)Nc3ccc(S(=O)(=O)NC(C)C(=O)O)cc3Cl)nnc2C(F)F)c2c1CCCC2,RT-Y181C,nucleotide incorporation / radiometric,-,>2
Cc1cc(C)cc(S(=O)(=O)c2c(C(N)=O)[nH]c3ccc(Cl)cc23)c1,RT-Y181I,nucleotide incorporation / radiometric,-,46.6
CCc1cc(C2CC2)ccc1-n1c(Br)nnc1SCC(=O)Nc1ccc(C(=O)O)cc1Cl,RT-Y181C,nucleotide incorporation / radiometric,-,>1